{"source": "patent US20220089698A1", "about": "“ANTIBODIES THAT TARGET HIV GP120 AND METHODS OF USE” (published 2022)", "binders": {"B1": {"name": "Antibody B-1 (antibody, human IgG1, kappa)", "heavy": "QVHLSQSGAAVTKPGASVRVSCEASGYKISDHFIHWWRQAPGQGLQWVGWINPKTGQPNNPRQFQGRVSLTRQASWDFDTYSFYMDLKAVRSDDTAIYFCARQRSDFWDFDVWGSGTQVTVSSASTKGPSVFPLAPSSKSTSGGTAALGCLVKDYFPEPVTVSWNSGALTSGVHTFPAVLQSSGLYSLSSVVTVPSSSLGTQTYICNVNHKPSNTKVDKKVEPKSCDKTHTCPPCPAPELLAGPDVFLFPPKPKDTLMISRTPEVTCVVVDVSHEDPEVKFNWYVDGVEVHNAKTKPREEQYNSTYRVVSVLTVLHQDWLNGKEYKCKVSNKALPLPEEKTISKAKGQPREPQVYTLPPSREEMTKNQVSLTCLVKGFYPSDIAVEWESNGQPENNYKTTPPVLDSDGSFFLYSKLTVDKSRWQQGNVFSCSVLHEALHSHYTQKSLSLSPGK", "light": "not shown"}, "B2": {"name": "Antibody 1.1.112-1 (antibody, human IgG1, kappa)", "heavy": "B1 heavy with H3Q, S5L, K28N, S30R, H32Y, Q73H, Y81F, V90L, I97V, F107Y", "light": "not shown"}}, "test_in_all_cases": "cell-based or functional assay", "key": {"[1]": {"target": "HIV-1 envelope glycoprotein (gp120) of virus VS001 (HIV-1)"}, "[2]": {"target": "HIV-1 envelope glycoprotein (gp120) of virus 7141 (HIV-1)"}, "[3]": {"target": "HIV-1 envelope glycoprotein (gp120) of virus 92US712 (HIV-1)"}, "[4]": {"target": "HIV-1 envelope glycoprotein (gp120) of virus 92US727 (HIV-1)"}, "[5]": {"target": "HIV-1 envelope glycoprotein (gp120) of virus 92US712 (HIV-1)", "remark": "listed apart in the source"}, "[6]": {"target": "HIV-1 envelope glycoprotein (gp120) of virus 8318 (HIV-1)"}, "[7]": {"target": "HIV-1 envelope glycoprotein (gp120) of virus 8339 (HIV-1)"}, "[8]": {"target": "HIV-1 envelope glycoprotein (gp120) of virus 92HT593 (HIV-1)"}, "[9]": {"target": "HIV-1 envelope glycoprotein (gp120) of virus THRO (HIV-1)"}, "[10]": {"target": "HIV-1 envelope glycoprotein (gp120) of virus 8320 (HIV-1)"}, "[11]": {"target": "HIV-1 envelope glycoprotein (gp120) of virus CH040 (HIV-1)"}, "[12]": {"target": "HIV-1 envelope glycoprotein (gp120) of virus CH106 (HIV-1)"}, "[13]": {"target": "HIV-1 envelope glycoprotein (gp120) of virus 92US657 (HIV-1)"}, "[14]": {"target": "HIV-1 envelope glycoprotein (gp120) of virus 7595 (HIV-1)"}, "[15]": {"target": "HIV-1 envelope glycoprotein (gp120) of virus 7576 (HIV-1)"}, "[16]": {"target": "HIV-1 envelope glycoprotein (gp120) of virus 8398 (HIV-1)"}, "[17]": {"target": "HIV-1 envelope glycoprotein (gp120) of virus 7051 (HIV-1)"}, "[18]": {"target": "HIV-1 envelope glycoprotein (gp120) of virus 7141 (HIV-1)", "remark": "listed apart in the source"}, "[19]": {"target": "HIV-1 envelope glycoprotein (gp120) of virus RHPA (HIV-1)"}, "[20]": {"target": "HIV-1 envelope glycoprotein (gp120) of virus 7552 (HIV-1)"}, "[21]": {"target": "HIV-1 envelope glycoprotein (gp120) of virus 1413 (HIV-1)"}, "[22]": {"target": "HIV-1 envelope glycoprotein (gp120) of virus 7015 (HIV-1)"}, "[23]": {"target": "HIV-1 envelope glycoprotein (gp120) of virus 7007 (HIV-1)"}, "[24]": {"target": "HIV-1 envelope glycoprotein (gp120) of virus 92US727 (HIV-1)", "remark": "listed apart in the source"}, "[25]": {"target": "HIV-1 envelope glycoprotein gp120 of virus 8117 (HIV-1)"}, "[26]": {"target": "HIV-1 envelope glycoprotein gp120 of virus 92HT593 (HIV-1)"}, "[27]": {"target": "HIV-1 envelope glycoprotein gp120 of virus CH106 (HIV-1)"}, "[28]": {"target": "HIV-1 envelope glycoprotein gp120 of virus 92US657 (HIV-1)"}, "[29]": {"target": "HIV-1 envelope glycoprotein gp120 of virus 1413 (HIV-1)"}, "[30]": {"target": "HIV-1 envelope glycoprotein gp120 of virus BaL (HIV-1)"}, "[31]": {"target": "HIV-1 envelope glycoprotein gp120 of virus 7015 (HIV-1)"}, "[32]": {"target": "HIV-1 envelope glycoprotein gp120 of virus 92US727 (HIV-1)"}, "[33]": {"target": "HIV-1 envelope glycoprotein gp120 of virus 8339 (HIV-1)"}}, "note": "Substitutions are numbered along the chain they refer to. Like-named read-outs stand apart in the source and are kept apart here."}
{"binder": "B1", "values": [{"measurement": "Neutralization IC50", "setting": "[1]", "value": 0.29, "unit": "µg/mL"}, {"measurement": "Neutralization IC50", "setting": "[2]", "value": 1.43, "unit": "µg/mL"}, {"measurement": "Neutralization IC50", "setting": "[3]", "value": 0.13, "unit": "µg/mL"}, {"measurement": "Neutralization IC50", "setting": "[4]", "value": 2.57, "unit": "µg/mL"}, {"measurement": "Neutralization IC50", "setting": "[5]", "value": 0.1, "unit": "µg/mL"}, {"measurement": "Neutralization IC50", "setting": "[6]", "value": 0.11, "unit": "µg/mL"}, {"measurement": "Neutralization IC50", "setting": "[7]", "value": "> 50", "unit": "µg/mL"}, {"measurement": "Neutralization IC50", "setting": "[8]", "value": 0.35, "unit": "µg/mL"}, {"measurement": "Neutralization IC50", "setting": "[9]", "value": 5.32, "unit": "µg/mL"}, {"measurement": "Neutralization IC50", "setting": "[10]", "value": 0.27, "unit": "µg/mL"}, {"measurement": "Neutralization IC50", "setting": "[11]", "value": 0.14, "unit": "µg/mL"}, {"measurement": "Neutralization IC50", "setting": "[12]", "value": 1.51, "unit": "µg/mL"}, {"measurement": "Neutralization IC50", "setting": "[13]", "value": 0.53, "unit": "µg/mL"}, {"measurement": "Neutralization IC50", "setting": "[14]", "value": 1.24, "unit": "µg/mL"}, {"measurement": "Neutralization IC50", "setting": "[15]", "value": 0.24, "unit": "µg/mL"}, {"measurement": "Neutralization IC50", "setting": "[16]", "value": "> 50", "unit": "µg/mL"}, {"measurement": "Neutralization IC50", "setting": "[17]", "value": 0.41, "unit": "µg/mL"}, {"measurement": "Neutralization IC50", "setting": "[18]", "value": 1.67, "unit": "µg/mL"}, {"measurement": "Neutralization IC50", "setting": "[19]", "value": 0.09, "unit": "µg/mL"}, {"measurement": "Neutralization IC50", "setting": "[20]", "value": 26, "unit": "µg/mL"}, {"measurement": "Neutralization IC50", "setting": "[21]", "value": 2.51, "unit": "µg/mL"}, {"measurement": "Neutralization IC50", "setting": "[22]", "value": 1.12, "unit": "µg/mL"}, {"measurement": "Neutralization IC50", "setting": "[23]", "value": "> 50", "unit": "µg/mL"}, {"measurement": "Neutralization IC50", "setting": "[24]", "value": 2.13, "unit": "µg/mL"}]}
{"binder": "B2", "values": [{"measurement": "HIV Neutralization Potency", "setting": "[25]", "value": 1.45, "unit": "µg/mL"}, {"measurement": "HIV Neutralization Potency", "setting": "[26]", "value": 0.56, "unit": "µg/mL"}, {"measurement": "HIV Neutralization Potency", "setting": "[27]", "value": 1.31, "unit": "µg/mL"}, {"measurement": "HIV Neutralization Potency", "setting": "[28]", "value": 0.74, "unit": "µg/mL"}, {"measurement": "HIV Neutralization Potency", "setting": "[29]", "value": 2.05, "unit": "µg/mL"}, {"measurement": "HIV Neutralization Potency", "setting": "[30]", "value": 0.12, "unit": "µg/mL"}, {"measurement": "HIV Neutralization Potency", "setting": "[31]", "value": 0.75, "unit": "µg/mL"}, {"measurement": "HIV Neutralization Potency", "setting": "[32]", "value": 30.3, "unit": "µg/mL"}, {"measurement": "HIV Neutralization Potency", "setting": "[33]", "value": 31.4, "unit": "µg/mL"}]}
